Data on one molecule can be found in paper PMC9734383 (2022).

The target in the assay is H2 HA (recombinant HA of the panel) (influenza A virus (strain  in …)). Description: BLI. (In BLI a coated tip is dipped into the sample, and binding shifts an interference pattern.)

B1: PN-SIA28 Fab (Fab, V domains shown)
VH: QVQLVESGGGVVQPGRSLRLSCAASGFPFSSYGMHWVRQAPGKGLEWVAGVSYDGSYKYYADSVKGRFTISRDSSKSTLYLQMNSLRPEDTAVYYCARPSAIFGIYIILNGLDVWGQGTTVTVSS
VL: EIVLTQSPSSVSASVGDRVTITCRATQGISSWLAWYQQKPGKPPKLLIFGASSLQSGVPSRFSGSGSGTDFTLTISSLQPEDFATYFCQQAHSFPLTFGGGTKVEIK
modifications: biotinylated (in the BLI assay)
As to B1, the Kd – broadly, the equilibrium constant for the complex coming apart – was determined as 51.6 nM.
